Assay: ICP-MS measurement of iron and ruthenium content of media
Conditions: additive at 100 µM

[Cl][Fe]([Cl])[Cl] [FeCl3]
[56Fe] of growth medium (chelexed MHII, 200 µM bpy, 1% DMSO): 155 µM | [101Ru] of growth medium (lowest limit of quantification = 36.2 ppb): < LLOQ
